PMC3656097, “Identification of Fibroblast Growth Factor Receptor 3 (FGFR3) as a Protein Receptor for Botulinum Neurotoxin Serotype A (BoNT/A)” (2013)

Assays:
[1] = target: recombinant binding domain of BoNT/A, His-rHC/A (Clostridium botulinum)
[2] = target: recombinant binding domain of BoNT/A, His-rHC/A (Clostridium botulinum); remark: listed apart in the source

FGFR3b Loop 2,3
Kd [1]: 15 nM | koff [1]: 0.00024 s⁻¹ | kon [1]: 17700 M⁻¹ s⁻¹ | Kd [2]: 15.1 nM | koff [2]: 0.000262 s⁻¹ | kon [2]: 17300 M⁻¹ s⁻¹

SV2C_(529–579)
Kd [1]: 105 nM | koff [1]: 0.000247 s⁻¹ | kon [1]: 2340 M⁻¹ s⁻¹ | Kd [2]: 96.2 nM | koff [2]: 0.000124 s⁻¹ | kon [2]: 1290 M⁻¹ s⁻¹

Like-named read-outs stand apart in the source and are kept apart here.
